Compound potency records, mixed from different reports. Data source: NIAID ChemDB in PubChem.

Shared fields: cytotoxicity tests; cell line: C8166; measure: CC50

Blank or dashed fields: not listed here. Neighbouring rows are from separate reports. CCn: concentration that lowers growth or viability of the cells by n%.

SMILES,method,value
C[C@H](CCC(=O)NCCS(=O)(=O)O)[C@H]1CC[C@H]2[C@@H]3CC[C@@H]4C[C@H](O)CC[C@]4(C)C3CC[C@]12C,MTT,>25 µg/mL
Cc1cc(S(N)(=O)=O)ccc1NC(=O)COc1ccc(Cl)cc1NS(=O)(=O)c1ccc([N+](=O)[O-])cc1,MTT,172 µM
CONc1nc(=O)n([C@H]2C[C@H](N=[N+]=[N-])[C@@H](CO)O2)cc1C,,200 µM
CCNC(=O)[C@@H](NC(=O)Cc1ccccc1)[C@@H]1N[C@@H](C(=O)NCCNC(=O)[C@@H]2N[C@@H]([C@H](NC(=O)Cc3ccccc3)C(=O)NCC)SC2(C)C)C(C)(C)S1,,>128 µM
CN(C)c1ccc(CNC(=O)[C@@H](NC(=O)Cc2ccccc2)[C@@H]2N[C@@H](C(=O)NC[C@@H](O)CN3C[C@H]4CCCC[C@H]4C[C@H]3C(=O)NC(C)(C)C)C(C)(C)S2)cc1,,>100 µM
Cc1cc(O)c2c(c1)C(=O)c1cc(O[C@@H]3O[C@H](CO[C@@H]4O[C@@H](C)[C@H](O)[C@@H](O)[C@H]4O)[C@@H](O)[C@H](O)[C@H]3O)cc(O)c1C2=O,MTT,756 µg/mL
Cc1cc(S(N)(=O)=O)ccc1NC(=O)COc1ccccc1NS(=O)(=O)c1ccc(Cl)cc1,MTT,184 µM
O=c1c2cccn2c2ccc(F)cc2n1CCNC(=S)Nc1ccc(Br)cn1,,15 µM
Cc1cc(S(N)(=O)=O)ccc1NC(=O)COc1ccc(Cl)cc1NS(=O)(=O)c1ccc(Cl)cc1,MTT,168 µM
COC(=O)C(C)NP(=O)(OC[C@H]1O[C@@H](n2cc(C)c(=O)[nH]c2=O)C[C@@H]1N=[N+]=[N-])Oc1ccc([N+](=O)[O-])cc1,,100 µM
O=C(Oc1cc(O)c2c(c1)O[C@H](c1ccc(O)c(O)c1)[C@@H](O)C2)c1cc(O)c(O)c(O)c1,,>100 µg/mL
O=[N+]([O-])c1ccccc1-n1ccc2ccccc21,MTT,191.9 µg/mL
CC(C)c1cc2c(c(O)c1O)[C@@]13CCCC(C)(C)C1CC2OC3=O,XTT,40 µM
O=c1cc(-c2ccc(O)cc2)oc2cc(O)cc(O)c12,,2 µg/mL
O=c1c2nccn2c2ccccc2n1CCNC(=S)Nc1ccc(Br)cn1,,88 µM
O=c1c(O)c(-c2ccc(O)cc2O)oc2cc(O)cc(O)c12,,100 µg/mL
O=C(O)C1=CC(=C(c2ccc(O)c(C(=O)O)c2)c2ccc(O)c(C(=O)O)c2)C=CC1=O,MTT,>500 µg/mL
Oc1cc(O)c2c(c1)O[C@H](c1ccc(O)c(O)c1)[C@H](O)C2,,>100 µg/mL
Cc1cc(S(N)(=O)=O)ccc1NC(=O)COc1ccccc1NS(=O)(=O)c1ccc([N+](=O)[O-])cc1,MTT,213 µM
Cc1cn(-c2ccc([N+](=O)[O-])cc2)c2ccccc12,MTT,157 µg/mL
CC(C)(C)NC(=O)[C@@H]1C[C@@H]2CCCC[C@@H]2CN1C[C@H](O)CNC(=O)[C@@H]1N[C@@H]([C@H](NC(=O)Cc2ccccc2)C(N)=O)SC1(C)C,,>100 µM
CC(C)c1cc2c(c(O)c1O)[C@@]1(C(=O)O)CCCC(C)(C)C1CC2,XTT,20 µM
CCOP(=O)(N[C@@H](C)C(=O)OC)OC[C@H]1O[C@@H](n2cc(C)c(=O)[nH]c2=O)C[C@@H]1N=[N+]=[N-],,300 µM
N#Cc1ccccc1-n1ccc2ccccc21,MTT,>200 µg/mL
Cc1cn([C@H]2C[C@H](N=[N+]=[N-])[C@@H](CO)O2)c(=O)[nH]c1=O,trypan blue,>0.08 µg/mL
O=C(OC1[C@H](OC(=O)c2cc(O)c(O)c(O)c2)CC(O)(C(=O)O)C[C@H]1OC(=O)c1cc(O)c(O)c(O)c1)c1cc(O)c(O)c(O)c1,,15 µg/mL
CCN1c2ncccc2N(C)C(=O)c2oc3cccnc3c21,,175 µM
COc1ccc(S(=O)(=O)Nc2cc(Cl)ccc2OCC(=O)Nc2ccc(S(N)(=O)=O)cc2)cc1,MTT,75.61 µM
Cc1cn([C@H]2C[C@H](N=[N+]=[N-])[C@@H](CO)O2)c(=O)[nH]c1=O,MTT / absorbance,>100 µM
Cc1cn([C@H]2C[C@H](N=[N+]=[N-])[C@@H](COP(=O)(OCC(Cl)(Cl)Cl)Oc3ccccc3)O2)c(=O)[nH]c1=O,,70 µM
CCN1c2ncccc2N(C)C(=O)c2c1c1ccccc1n2CC,,25 µM
Cc1cn([C@H]2C[C@H](N=[N+]=[N-])[C@@H](CO)O2)c(=O)nc1NO,,500 µM
O=c1c2cccn2c2c(F)cccc2n1CCNC(=S)Nc1ccc(Br)cn1,,21 µM
O=c1ccn([C@H]2CC[C@@H](CO)O2)c(=O)[nH]1,MTT,>500 µg/mL
CCN1c2ncccc2N(C)C(=S)c2sc3cccnc3c21,,38 µM
O=[N+]([O-])c1ccc(-n2ccc3ccccc32)cc1,MTT,91.44 µg/mL
Cc1cn([C@H]2C[C@H](N=[N+]=[N-])[C@@H](CO)O2)c(=O)nc1NNCCO,,150 µM
O=c1c(O)c(-c2ccc(O)cc2)oc2cc(OC3OC(CO)C(O)C(O)C3O)cc(O)c12,,>250 µg/mL
CC(C)(C)NC(=O)[C@@H]1C[C@@H]2CCCC[C@@H]2CN1CC(O)CNC(=O)[C@@H]1N[C@@H]([C@H](NC(=O)Cc2ccccc2)C(=O)NCCNC(=O)OC(C)(C)C)SC1(C)C,,>100 µM
CC(C)(C)OC(=O)[C@@H]1CCCN1C[C@@H](O)[C@H](Cc1ccccc1)NC(=O)[C@H](CC(N)=O)NC(=O)OCc1ccccc1,MTT,>200 µg/mL
N#C/C=C1/c2cc(S)cc([N+](=O)[O-])c2-c2c1cc(S(=O)(=O)NCc1ccccc1)cc2[N+](=O)[O-],MTT / absorbance,>100 µM
O=C(OCC1OC(OCCc2ccccc2)C(O)C(O)C1O)c1cc(O)c(O)c(O)c1,,200 µg/mL
O=C(O)/C=C/c1ccc(O)c(O)c1,,200 µg/mL
Cc1cn([C@H]2C[C@H](N=[N+]=[N-])[C@@H](CO)O2)c(=O)[nH]c1=O,,>1000 µM
CCN1c2ncccc2N(C)C(=O)c2sc3cccnc3c21,,73 µM
O=C(/C=C/c1ccc(O)c(O)c1)O[C@H](Cc1ccc(O)c(O)c1)C(=O)O,,100 µg/mL

A second listing of 5 rows from above:

{"SMILES": "O=[N+]([O-])c1ccc(-n2ccc3ccccc32)cc1", "method": "MTT", "value": "91.44 µg/mL"}
{"SMILES": "N#C/C=C1/c2cc(S)cc([N+](=O)[O-])c2-c2c1cc(S(=O)(=O)NCc1ccccc1)cc2[N+](=O)[O-]", "method": "MTT / absorbance", "value": ">100 µM"}
{"SMILES": "O=c1ccn([C@H]2CC[C@@H](CO)O2)c(=O)[nH]1", "method": "MTT", "value": ">500 µg/mL"}
{"SMILES": "N#Cc1ccccc1-n1ccc2ccccc21", "method": "MTT", "value": ">200 µg/mL"}
{"SMILES": "CC(C)c1cc2c(c(O)c1O)[C@@]13CCCC(C)(C)C1CC2OC3=O", "method": "XTT", "value": "40 µM"}